System: E. coli mutant strains compared with MG1655
Assay: Flow cytometry uptake of BODIPY-labeled (KFF)3K-PNA
Type: cell-based, Escherichia coli
Details: 2 μM PNA5873 in PBS, 1 h, room temperature, mean bacterial fluorescence, triplicate

H-(KFF)3K-eg1-Cys(BODIPY)- [PNA5873, BODIPY fluorophore-labeled (KFF)3K mismatch PNA; mm for PNA5872]
uptake by flow cytometry (inner core LPS mutants vs wild type MG1655): higher fraction
uptake by flow cytometry (tolB and tolQ mutants vs wild type): increased

From PMC9251361, “Effects of LPS Composition in Escherichia coli on Antibacterial Activity and Bacterial Uptake of Antisense Peptide-PNA Conjugates” (Frontiers in Microbiology, 2022)
